Potato spindle tuber viroid, loop 15: variant abundance in plants

Reference: Wu et al. 2024, doi:10.1371/journal.ppat.1012142.

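A pool of all variants was put on leaves of three Nicotiana benthamiana plants. Samples came from the inoculated region at 5 days, the leaf margin at 10 and upper systemic leaves at 12.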

Region: loop 15 of PSTVd (intermediate strain), upper and lower strand joined, each 5' to 3', the first 7 letters being the upper strand, closing pairs included. Wild type: GGAAACCGCUACUAC. Varied positions (N): GGAAACCGNNNNNNC.

Values are reads per thousand in the sample; higher means more abundant, 0 means not found. Each value is the mean of three plants. "Pool" is the share in the plasmid pool used as inoculum, on the same scale. The inoculated region was read from the minus strand, the other sites from the plus strand. IR is the inoculated region, LM the leaf margin, Sys the systemic leaves. Samples held 43,870 to 66,106 reads, so the smallest values rest on one or two reads. Wild type was 33.9 per thousand in the pool and the most common sequence in every sample (inoculated region 202, 200, 159; leaf margin 724, 746, 710; systemic leaves 856, 883, 880). The authors trace changes outside the varied positions to PCR and sequencing errors or to mutation in the plant; presence does not show that a variant is infectious alone.

| sequence | pool | IR | LM | Sys |
|---|---|---|---|---|
| GGAAACCGAGGCUUC | 0.256 | 0.0664 | 0.00539 | 0 |
| GGAAACCGUCAUGCC | 0.112 | 0.101 | 0.0128 | 0 |
| GGAAACCGGUCAUAC | 0.256 | 0.328 | 0.783 | 0.0891 |
| GGAAACCGACGAUCC | 0.320 | 0.0920 | 0.00668 | 0 |
| GGAAACCGUGGCAUC | 0.208 | 0.145 | 0.00668 | 0 |
| GGAAACCGCGCACCC | 0.288 | 0.0741 | 0.0134 | 0 |
| GGAAACCGUGACACC | 0.208 | 0.126 | 0.00668 | 0.00537 |
| GGAAACCGGUACAGC | 0.144 | 0.117 | 0 | 0 |
| GGAAACCGGACGGCC | 0.128 | 0.0578 | 0.0275 | 0 |
| GGAAACCGACCGGCC | 0.224 | 0.111 | 0.00539 | 0 |
| GGAAACCGGCGCCCC | 0.240 | 0.0805 | 0 | 0 |
| GGAAACCGAUCUUUC | 0.304 | 0.357 | 0.118 | 0.00537 |
| GGAAACCGUCUGCUC | 0.144 | 0.0897 | 0.00668 | 0 |
| GGAAACCGCGCUGGC | 0.336 | 0.0642 | 0.0128 | 0 |
| GGAAACCGUGUAGGC | 0.288 | 0.0814 | 0.00539 | 0 |
| GGAAACCGAGGACCC | 0.256 | 0.0760 | 0.00668 | 0 |
| GGAAACCGACGUAUC | 0.240 | 0.146 | 0.0195 | 0 |
| GGAAACCGGGUAUAC | 0.256 | 0.327 | 0.0869 | 0.0161 |
| GGAAACCGCGAUAAC | 0.336 | 0.333 | 0.0785 | 0.0667 |
| GGAAACCGUCCUCCC | 0.240 | 0.121 | 0.0148 | 0.0107 |
| GGAAACCGUACAUCC | 0.240 | 0.0794 | 0.00668 | 0 |
| GGAAACCGAAGUCAC | 0.256 | 0.101 | 0.00668 | 0.0107 |
| GGAAACCGAGUGAUC | 0.288 | 0.132 | 0 | 0 |
| GGAAACCGGCGGCCC | 0.208 | 0.0834 | 0.00539 | 0 |
| GGAAACCGUAACUCC | 0.224 | 0.316 | 0.128 | 0.00537 |
| GGAAACCGCAACGGC | 0.256 | 0.287 | 0.0108 | 0.00537 |
| GGAAACCGAUGAAGC | 0.224 | 0.0813 | 0 | 0 |
| GGAAACCGACAUAAC | 0.144 | 0.460 | 0.0967 | 0.0268 |
| GGAAACCGGACCGCC | 0.288 | 0.163 | 0.0282 | 0.0161 |
| GGAAACCGACCUUAC | 0.336 | 0.464 | 0.166 | 0.0107 |
| GGAAACCGAAAAGGC | 0.0960 | 0.117 | 0 | 0 |
| GGAAACCGUAUCUUC | 0.208 | 0.0867 | 0.00539 | 0 |
| GGAAACCGCUUCCUC | 0.112 | 0.140 | 0.0187 | 0 |
| GGAAACCGCUAAAGC | 0.336 | 0.0932 | 0.00668 | 0 |
| GGAAACCGAAGGCAC | 0.224 | 0.0587 | 0.0141 | 0 |
| GGAAACCGUGCGCGC | 0.192 | 0.0966 | 0.00668 | 0.00760 |
| GGAAACCGAGAACGC | 0.144 | 0.0924 | 0.00539 | 0 |
| GGAAACCGACCAUAC | 0.112 | 0.325 | 0.0906 | 0.0667 |
| GGAAACCGGCUGAAC | 0.240 | 0.108 | 0.0187 | 0.00537 |
| GGAAACCGGAGUAAC | 0.256 | 0.0932 | 0.00539 | 0 |
| GGAAACCGAACGGAC | 0.288 | 0.0976 | 0.00539 | 0 |
| GGAAACCGACCUAAC | 0.240 | 0.108 | 0.00539 | 0.00537 |
| GGAAACCGACUCUGC | 0.144 | 0.0945 | 0.0134 | 0.00760 |
| GGAAACCGCAUGGCC | 0.208 | 0.104 | 0.00742 | 0 |
| GGAAACCGCCUAGUC | 0.176 | 0.0857 | 0.0128 | 0 |
| GGAAACCGCAUGUAC | 0.272 | 0.342 | 0.118 | 0.0581 |

Extract of 3 entries:

sequence,pool,IR,LM,Sys
GGAAACCGAGGACCC,0.256,0.0760,0.00668,0
GGAAACCGUCCUCCC,0.240,0.121,0.0148,0.0107
GGAAACCGAGAACGC,0.144,0.0924,0.00539,0